Source: patent US20220332769A1
“And” between values parts separate entries of the source, which are not always exact repeats. Equal entries are not always repeated.

Target: SARS CoV-1 spike on pseudotyped lentivirus (CoV-1 PVP) (SARS CoV-1) (UniProt P59594)
Test: cell-based or functional assay

Recombinant ACE2 protein (from UniProt Q9BYF1 18-740) (receptor)
fold loss of potency against its activity on CoV-2 PVPs: 4 fold and 5 fold
